Test results: ChEMBL document CHEMBL1137017, “In vitro antiviral activity and cross-resistance profile of PL-100, a novel protease inhibitor of human immunodeficiency virus type 1” (Antimicrob Agents Chemother, 2007)

Target: Protease (Human immunodeficiency virus 1, UniProt Q9YQ12)
Assay: Inhibition of HIV1 protease

CC(C)(C)NC(=O)[C@@H]1C[C@@H]2CCCC[C@@H]2CN1C[C@@H](O)[C@H](Cc1ccccc1)NC(=O)[C@H](CC(N)=O)NC(=O)c1ccc2ccccc2n1
Ki: 0.08 nM

CC(C)(C)NC(=O)[C@@H]1CN(Cc2cccnc2)CCN1C[C@@H](O)C[C@@H](Cc1ccccc1)C(=O)N[C@H]1c2ccccc2C[C@H]1O
Ki: 1.95 nM

Cc1cccc(C)c1OCC(=O)N[C@@H](Cc1ccccc1)[C@@H](O)C[C@H](Cc1ccccc1)NC(=O)[C@H](C(C)C)N1CCCNC1=O [LOPINAVIR]
Ki: 0.014 nM
